Compound potency records, mixed from different reports. Data source: NIAID ChemDB in PubChem.

Common to all: tests in culture; species: HIV-1; cell line: CEM; endpoint: EC50

Rows are shuffled and stem from different studies. ECn is the concentration giving n% inhibition of infection, replication or growth. Blank or dashed fields: not listed here.

| SMILES | strain | mutations | read by | result |
|---|---|---|---|---|
| C=CCOC(=O)N[C@@H](Cc1ccccc1)[C@H](O)CN(CC(C)C)S(=O)(=O)c1ccc(F)c(NC(C)=O)c1 | IIIB |  | p24 | <10 µM |
| NC(=O)C[C@H](NC(=O)c1ccc2ccccc2n1)C(=O)N[C@@H](Cc1ccccc1)[C@H](O)CN(Cc1ccccc1)S(=O)(=O)c1cccc(S(N)(=O)=O)c1 | IIIB |  | p24 | <0.101 µM |
| O=C(O)[C@@H]1CCCCN1C(=O)c1ccccc1SSc1ccccc1C(=O)N1CCCC[C@H]1C(=O)O | IIIB |  | cytopathic effect / XTT | >100 µM |
| CC(C)c1c(Sc2ccccc2)n(COCCO)c(=O)[nH]c1=O | IIIB |  | syncytia | 0.028 µM |
| CC(C)CN(C[C@@H](O)[C@H](Cc1ccccc1)NC(=O)OCc1ccccn1)S(=O)(=O)c1ccc(F)c(F)c1 | IIIB |  | p24 | <1.001 µM |
| O=C(Nc1ccc(Cl)c(C(=O)OC2CCCCC2)c1)c1ccccc1F |  | RT-L100I | syncytia | ≥27 µM |
| COc1ccc(NC(=S)C2=C(C)OCCS2)cc1OCC=C(Cl)Cl | Pyridone-resistant (RT Y181C) | RT-Y181C | syncytia | 2 µg/mL |
| Cc1occc1C(=S)Nc1ccc(Cl)c(OCCC(C)C)c1 |  | RT-K103N | syncytia | 0.45 µM |
| CC(C)OC(=O)c1cc(NC(=S)OC(C)(C)C)ccc1Cl |  | RT-Y181C | syncytia | 19.71 µM |
| O=C(N[C@@H](CCc1ccccc1)C(=O)O)c1ccccc1SSc1ccccc1C(=O)N[C@@H](CCc1ccccc1)C(=O)O | IIIB |  | cytopathic effect / XTT | 6 µM |
| C/C=C/COc1cc(NC(=S)c2ccoc2C)ccc1Cl |  | RT-V106A | syncytia | 1.7 µM |
| O=C1NC(c2ccccc2)=C(C(=O)OCC2CCCCC2)C(c2cccc(O)c2)N1 |  |  | p24 / ELISA | >5 µM |
| CC1=C(C(=O)Nc2cc(C(=O)OC(C)C)c(F)cc2F)SCCO1 | TIBO-resistant (RT L100I) | RT-L100I | syncytia | >10 µg/mL |
| COc1ccc(S(=O)(=O)N(CC(C)C)C[C@@H](O)CC(=O)N2CSCC2C(=O)NC(C)(C)C)cc1 | IIIB |  | p24 | <1 µM |
| CCOCn1c(Sc2ccccc2)c(CC)c(=O)[nH]c1=S | IIIB TIBO R82913-resistant (RT K103N) | RT-K103N | syncytia | 1.1 µM |
| CCOC(=O)c1cc(NC(=O)C2=C(C)OCCS2)ccc1Cl | TIBO-resistant (RT L100I) | RT-L100I | syncytia | 7.5 µg/mL |
| C=C(Cl)COc1cc(NC(=S)c2ccoc2C)ccc1C | TSAO-m3T-resistant (RT E138K) | RT-E138K | syncytia | 0.6 µg/mL |
| CCCCCOC(=S)Nc1ccc(Cl)c(C(=O)OC(C)C)c1 |  | RT-L100I | syncytia | 16 µM |
| O=C(c1ccccc1)N(CCc1ccccc1)C[C@H](O)CN(CC1CCCC1)S(=O)(=O)c1cccnc1 | IIIB |  | p24 | <1 µM |
| CC(C)OC(=S)Nc1ccc(Cl)c(C(=O)OC2(C)COC2)c1 |  | RT-V106A | syncytia | 2.472 µM |
| O=C(N[C@@H](CO)C(=O)O)c1ccccc1SSc1ccccc1C(=O)N[C@@H](CO)C(=O)O | IIIB |  | cytopathic effect / XTT | >100 µM |
| Cc1ccsc1C(=S)Nc1ccc(Cl)c(/C=N/OC(C)(C)C)c1 |  | RT-L100I | syncytia | 0.54 µM |
| CC(C)=CCOc1cc(NC(=S)c2ccoc2C)ccc1Cl | IIIB | RT-Y181C | syncytia | 0.033 µM |
| CC(C)=CCOc1cc(NC(=S)c2ccoc2C)ccc1Cl | IIIB | RT-Y188H | syncytia | 0.045 µM |
| CC1=C(C(=O)NCC2CCCCC2)C(c2cccc(O)c2)NC(=O)N1 |  |  | p24 / ELISA | >5 µM |
| Cc1sccc1C(=S)Nc1ccc(Cl)c(C(=O)OC2CCCCC2)c1 |  | RT-K103N | syncytia | 0.475 µM |
| CC(C)OC(=S)Nc1ccc(Cl)c(C(=O)OC(C)(C)C)c1 | IIIB |  | syncytia | 0.121 µM |
| CCC1=C(C(=O)CCc2ccccc2)C(c2ccc(O)c(Cl)c2)NC(=O)N1 |  |  | p24 / ELISA | >5 µM |
| CO/N=C/c1cc(NC(=S)OC(C)C)ccc1Cl |  | RT-L100I | syncytia | 9.066 µM |
| CC1=C(C(=O)OCC2CCCCC2)C(c2ccccc2O)NC(=O)N1 |  |  | p24 / ELISA | >5 µM |
| Cc1ccsc1C(=S)Nc1ccc(Cl)c(C(=O)OC2CCCCC2)c1 |  | RT-Y181C | syncytia | 0.87 µM |
| CC(C)OC(=S)Nc1ccc(Cl)c(COC(C)(C)C)c1 |  | RT-V106A | syncytia | ≥31.66 µM |
| O=C(NC(C(=O)O)c1ccccc1)c1ccccc1SSc1ccccc1C(=O)NC(C(=O)O)c1ccccc1 | IIIB |  | cytopathic effect / XTT | 25 µM |
| Cc1ccccc1C(=S)Nc1ccc(Cl)c(C(=O)OC(C)C)c1 |  | RT-E138K | syncytia | 1.9 µM |
| CC(C)O/N=C/c1cc(NC(=S)OC(C)C)ccc1Cl |  | RT-Y181C | syncytia | 1.061 µM |
| CC1=C(C(=S)Nc2ccc(Cl)c(C=NOC(C)(C)C)c2)CCCO1 |  | RT-Y181C | syncytia | 0.067 µM |
| CCCCCOC(=O)c1cc(NC(=O)C2=C(C)OCCS2)ccc1Cl | TIBO-resistant (RT L100I) | RT-L100I | syncytia | 3.5 µg/mL |
| CC(C)OC(=S)Nc1ccc(Cl)c(OC(=O)C(C)C)c1 | IIIB |  | syncytia | 28 µM |
| C=CCOc1cc(NC(=S)OC(C)C)ccc1Cl |  | RT-V106A | syncytia | 6.998 µM |
| NC(=O)C[C@H](NC(=O)c1ccc2ccccc2n1)C(=O)N[C@@H](Cc1ccccc1)[C@H](O)CN(Cc1ccccc1)S(=O)(=O)c1cccc2nonc12 | IIIB |  | p24 | <0.101 µM |
| COc1ccc(NC(=O)c2ccoc2C)cc1OCC=C(Cl)Cl | TSAO-m3T-resistant (RT E138K) | RT-E138K | syncytia | 10 µg/mL |
| CC[C@H](C)[C@H](NC(=O)OCc1ccccc1)C(=O)N[C@@H](Cc1ccccc1)[C@H](O)CN(CC(C)C)S(=O)(=O)c1ccc(F)c(NC(C)=O)c1 | IIIB |  | p24 | <1 µM |
| C/C=C/CSc1cc(NC(=S)c2ccoc2C)ccc1Cl |  | RT-K103N | syncytia | 0.24 µM |
| COc1ccc(NC(=S)c2ccsc2C)cc1OCC=C(Cl)Cl | Nevirapine-resistant isolate (RT V106A) | RT-V106A | syncytia | 0.09 µg/mL |
| CC(C)OC(=O)c1cc(NC(=S)OCC2CC2)ccc1Cl |  | RT-L100I | syncytia | 7.603 µM |
| CC(C)=CCOc1cc(NC(=S)c2ccsc2C)ccc1Cl |  | RT-L100I | syncytia | 0.017 µM |
| CC(C)C[C@H](NC(=O)c1ccccc1SSc1ccccc1C(=O)N[C@@H](CC(C)C)C(=O)OC(C)(C)C)C(=O)OC(C)(C)C | IIIB |  | cytopathic effect / XTT | 69 µM |
| CC(C)OC(=S)Nc1ccc(Cl)c(C(=O)O)c1 | IIIB |  | syncytia | >36.53 µM |
| Cc1sccc1C(=S)Nc1ccc(Cl)c(OCCC(C)C)c1 |  | RT-V106A | syncytia | 0.169 µM |
| CCCCOC(=O)c1cc(NC(=O)C2=C(C)OCCS2)ccc1Cl | PYR-resistant (RT Y181C) | RT-Y181C | syncytia | 0.7 µg/mL |
| CC(C)(NC(=O)c1ccccc1SSc1ccccc1C(=O)NC(C)(C)C(=O)O)C(=O)O | IIIB |  | cytopathic effect / XTT | 25 µM |
| COc1ccc(S(=O)(=O)N(CC(C)C)C[C@@H](O)CCN(CC2CCCC2)S(=O)(=O)c2ccccc2)cc1 | IIIB |  | p24 | <1 µM |
| CCOCn1c(Sc2ccccc2)c(C(C)C)c(=O)[nH]c1=S | IIIB (TIBO 82150) (RT-L100I) | RT-L100I | syncytia | 0.03 µM |
| CC1=C(C(=O)N(C)c2ccc(Cl)c(C(=O)OC(C)C)c2)SCCO1 | TSAO-resistant (RT E138K) | RT-E138K | syncytia | >10 µg/mL |
| COc1ccc(S(=O)(=O)N(CC(C)C)C[C@@H](O)CCN(CC2CCCC2)S(=O)(=O)Cc2cncs2)cc1 | IIIB |  | p24 | <1 µM |
| C/C=C\COc1cc(NC(=S)OC(C)C)ccc1Cl |  | RT-Y181C | syncytia | 2 µM |
| C/C=C/COc1cc(NC(=S)c2ccn(C)c2C)ccc1Cl |  | RT-E138K | syncytia | 1.5 µM |
| CCCCCNc1ccc(C2NC(=O)NC(CC)=C2C(=O)OCC2CCCCC2)cc1 |  |  | p24 / ELISA | ≤1 µM |
| Cc1occc1C(=S)Nc1ccc(Cl)c(/C=N/OC(C)(C)C)c1 | IIIB | RT-V106A | syncytia | 0.37 µM |
| CCC1=C(C(=O)OCC2CCCCC2)C(c2ccc(OC(O)[C@H](C)NC(=O)OC(C)(C)C)c(Cl)c2)NC(=O)N1 |  |  | p24 / ELISA | ≤1 µM |
| CC(=O)Nc1nc(C)c(S(=O)(=O)N(CC(C)C)C[C@@H](O)[C@H](Cc2ccccc2)NC(=O)[C@H](CC(N)=O)NC(=O)c2ccc3ccccc3n2)s1 | IIIB |  | p24 | <0.101 µM |
| Cc1cc(C)cc(Cc2c(C(C)C)c(=O)[nH]c(=O)n2COCCO)c1 | IIIB | RT-Y181I | syncytia | >10 µM |
| CSc1ccc(NC(=S)OC(C)C)cc1C(=O)OC(C)C | IIIB |  | syncytia | 0.122 µM |
| CC(C)OC(=O)c1cc(NC(=S)c2cccs2)ccc1Cl |  | RT-V106A | syncytia | 1.7 µM |
| COc1ccc(S(=O)(=O)N(CC2CCCC2)C[C@@H](O)[C@H](Cc2ccccc2)NC(=O)OCc2cccnc2)cc1 | IIIB |  | p24 | <0.1 µM |
| CCC(C)OC(=S)Nc1ccc(Cl)c(C(=O)OC(C)(C)C)c1 |  | RT-Y181C | syncytia | 1.454 µM |
| CC(C)CN(CC(O)CNc1cc(C(C)(C)C)[nH]n1)S(=O)(=O)c1ccccc1 | IIIB |  | p24 | <1 µM |
| CC(C)CN(C[C@@H](O)[C@H](Cc1ccccc1)NC(=O)OCc1ccccc1)S(=O)(=O)c1ccc(N)c([N+](=O)[O-])c1 | IIIB |  | p24 | <10 µM |
| O=C(c1ccccc1)N(CCc1ccccc1)C[C@H](O)CN(CC1CCCC1)S(=O)(=O)Cc1cnco1 | IIIB |  | p24 | <1 µM |
| CC(C)OC(=S)Nc1ccc(Cl)c(C(=O)OCC(F)(F)F)c1 |  | RT-Y181C | syncytia | >28.11 µM |
| CC(C)C[C@@H](CC(=O)O)NC(=O)c1ccccc1SSc1ccccc1C(=O)N[C@H](CC(=O)O)CC(C)C | IIIB |  | cytopathic effect / XTT | 3.4 µM |
| CCOC(=O)c1cc(NC(=S)OC(C)C)ccc1Cl |  | RT-E138K | syncytia | 2.485 µM |
| CCOCn1c(Sc2ccccc2)c(CC)c(=O)[nH]c1=O | IIIB (TIBO 82150) (RT-L100I) | RT-L100I | syncytia | 0.033 µM |
| CC(C)CN(C[C@@H](O)[C@H](Cc1ccccc1)NC(=O)O[C@H]1CCOC1)S(=O)(=O)c1cccc(Cl)c1 | IIIB |  | p24 | <0.101 µM |
| Cc1ccsc1C(=O)Nc1ccc(Cl)c(/C=N/OC(C)(C)C)c1 |  | RT-L100I | syncytia | 13 µM |
| CCCOC(=S)Nc1ccc(Cl)c(C(=O)OC(C)C)c1 |  | RT-L100I | syncytia | 8.55 µM |
| Cc1occc1C(=O)Nc1ccc(Cl)c(SCC=C(Cl)Cl)c1 | IIIB |  | syncytia | 0.093 µg/mL |
| CC1=C(C(=O)Nc2ccc(Cl)c(C(=O)OC(C)C)c2)SCCO1 | IIIB |  | syncytia | 0.042 µM |
| Cc1sccc1C(=O)Nc1ccc(Cl)c(OCC=C(Cl)Cl)c1 | TSAO-m3T-resistant (RT E138K) | RT-E138K | syncytia | 0.95 µg/mL |
| CC(C)CN(C[C@@H](O)[C@H](Cc1ccccc1)NC(=O)O[C@H]1CCOC1)S(=O)(=O)c1ccc2nonc2c1 | IIIB |  | p24 | <1 µM |
| CC(C)[C@@H](/C=C/C(=O)O)NC(=O)c1ccccc1SSc1ccccc1C(=O)N[C@H](/C=C/C(=O)O)C(C)C | IIIB |  | cytopathic effect / XTT | 4.8 µM |
| CC1=C(C(=O)Nc2ccc(F)c(C(=O)OC(C)C)c2)SCCO1 | IIIB |  | syncytia | 0.35 µg/mL |
| COc1ccc(NC(=S)c2ccoc2C)cc1OCC=C(Cl)Cl | Nevirapine-resistant isolate (RT V106A) | RT-V106A | syncytia | 0.077 µg/mL |
| CCCC1=C(C(=O)Nc2ccc(Cl)c(C(=O)OCC)c2)SCCO1 | Nevirapine-resistant (RT V106A) | RT-V106A | syncytia | >10 µg/mL |
| CCOCn1c(Cc2cc(C)cc(C)c2)c(CC)c(=O)[nH]c1=O | IIIB |  | syncytia | 0.001 µM |
| O=C(N[C@@H](Cc1ccccc1)[C@H](O)CN(CC1CCCC1)S(=O)(=O)c1cccnc1)O[C@H]1CCOC1 | IIIB |  | p24 | <0.101 µM |
| CC(=O)OCCOC(=O)c1cc(NC(=S)OC(C)C)ccc1Cl | IIIB |  | syncytia | 2.779 µM |
| CC(=O)Nc1ccc(S(=O)(=O)N(CC(C)C)C[C@@H](O)[C@H](Cc2ccccc2)NC(=O)[C@H](CC(N)=O)NC(=O)c2ccc3ccccc3n2)cc1 | IIIB |  | p24 | <1 µM |
| CCSC(=O)C1=C(CC)NC(=O)NC1c1cccc(O)c1 |  |  | p24 / ELISA | >5 µM |
| O=C(N[C@H](CO)c1ccccc1)c1ccccc1SSc1ccccc1C(=O)N[C@H](CO)c1ccccc1 | IIIB |  | cytopathic effect / XTT | >21 µM |
| CC(C)c1c(Sc2ccccc2)n(COCc2ccccc2)c(=O)[nH]c1=O | IIIB (TIBO 82150) (RT-L100I) | RT-L100I | syncytia | 0.01 µM |

The last 5 rows once more:

SMILES	strain	mutations	read by	result
CC(=O)OCCOC(=O)c1cc(NC(=S)OC(C)C)ccc1Cl	IIIB		syncytia	2.779 µM
CC(=O)Nc1ccc(S(=O)(=O)N(CC(C)C)C[C@@H](O)[C@H](Cc2ccccc2)NC(=O)[C@H](CC(N)=O)NC(=O)c2ccc3ccccc3n2)cc1	IIIB		p24	<1 µM
CCSC(=O)C1=C(CC)NC(=O)NC1c1cccc(O)c1			p24 / ELISA	>5 µM
O=C(N[C@H](CO)c1ccccc1)c1ccccc1SSc1ccccc1C(=O)N[C@H](CO)c1ccccc1	IIIB		cytopathic effect / XTT	>21 µM
CC(C)c1c(Sc2ccccc2)n(COCc2ccccc2)c(=O)[nH]c1=O	IIIB (TIBO 82150) (RT-L100I)	RT-L100I	syncytia	0.01 µM